Compound potency records, mixed from different reports. Data source: NIAID ChemDB in PubChem.

All rows: host cell toxicity; cells: HeLa; measure: CC50

a–b is a range or a potency band.

compound	read by	result
CCCCCCCCCCCCCCCC(=O)OC[C@H]1OC(OC(=O)NS(=O)(=O)OC[C@H]2O[C@@H](n3ccc(=O)[nH]c3=O)[C@@H]3OC(C)(C)O[C@@H]32)[C@H](OC(=O)CCCCCCCCCCCCCCC)[C@@H](OC(=O)CCCCCCCCCCCCCCC)[C@@H]1OC(=O)CCCCCCCCCCCCCCC	-	220 µM
CC1(C)[C@@H](CO)CC[C@@]1(C)Cn1nnc2c(N)ncnc21	-	>400 µg/mL
CN1C=CN(c2cccc(N3C=CN(C)C3)n2)C1.[Cl][Au].[Cl][Au]	sulforhodamine / absorbance	>30 µM
Cc1cc(CCCCCCCOc2ccc(C3=NCCO3)cc2)on1	-	36 µM
O=C1c2c(Cl)cc(Cl)cc2OCC1Cc1ccc(Cl)cc1	-	<6.25 µM
CS(=O)(=O)CCCN1C(=O)c2ccccc2C(CC(=O)c2ccccc2)C1=O	-	183 µM
O=C(O)c1cn(C2CC2)c2cc(N3CCNCC3)ccc2c1=O	-	168 µg/mL
Nc1nccc2c1ncn2[C@@H]1C[C@H](CO)[C@@H](O)[C@H]1O	-	>400 µg/mL
CCOC(=O)c1c(O)c2cccnc2n(O)c1=O	-	<100 µM
N#Cc1cc(C#N)c2[nH]c3ccccc3n2c1=O	-	38 µg/mL
C=C(C=O)[C@@H]1CC[C@@]2(C)C1C1CCC3[C@@]4(C)CC[C@H](O)C(C)(C)C4CC[C@@]3(C)[C@]1(C)C[C@@H]2O	-	>10 µM
N#Cc1ccc(OCCCCC(=O)c2ccccc2)cc1	-	>267 µM
COc1ccc(CC2COc3cc(OC)cc(OC)c3C2=O)cc1	-	25 µM
COC(C)(C)/C=C/C[C@](C)(O)C1[C@H](O)C[C@@]2(C)[C@@H]3CC=C4[C@@H](C[C@H](O)[C@@H](O)C4(C)C)[C@]3(C)C(=O)C[C@]12C	MTT	>50 µM
Nc1nc2c(ncn2[C@@H]2O[C@H](CO)[C@@H](F)[C@H]2O)c(=O)[nH]1	-	>400 µg/mL
CCCCSc1n[nH]c(-c2ccc([N+](=O)[O-])c(C)c2)n1	-	4.9 µg/mL
COC1=C(OCc2ccc([N+](=O)[O-])cc2)C(=O)O/C1=C\Cn1cnc2c(Cl)ncnc21	-	20.18 µM
Cc1cc(CCCCCCCOc2ccc(C3=NCCO3)cc2)on1	-	4–8 µg/mL
O=C(NS(=O)(=O)OC[C@H]1O[C@@H](n2ccc(=O)[nH]c2=O)[C@H](O)[C@@H]1O)O[C@H]1O[C@H](COC(=O)c2ccccc2)[C@@H](OC(=O)c2ccccc2)[C@H](OC(=O)c2ccccc2)[C@H]1OC(=O)c1ccccc1	-	230 µM
CSc1noc(-c2ccc(OCCCCOc3ccccc3)cc2)c1C#N	-	10 µM
CCOc1cc(O)c(C(=O)/C=C/c2ccc(OC)cc2)c(OC)c1	-	18 µg/mL
COc1ccc(C(=O)CCCCOc2ccc(C#N)cc2)cc1	-	194 µM
COc1ncc(OC)c2c(C(=O)C(=O)N3CCN(C(=O)c4ccccc4)[C@H](C)C3)c[nH]c12	trypan blue	>100 µM
COC1=C(OC)/C(=C/Cn2cnc3c(Cl)ncnc32)OC1=O	-	23.37 µM
CC1(C)[C@@H](CO)CC[C@@]1(C)Cn1cnc2c(Cl)ncnc21	-	>400 µg/mL
CCCCSc1n[nH]c(-c2cccc([N+](=O)[O-])c2C)n1	-	27.3 µg/mL
CCOC(=O)c1ccc(OCCCCC(=O)c2ccc(C)c(C)c2)cc1	-	146 µM
COc1ccccc1NC(=O)c1ccccc1Oc1ccc(OCO)c(OCO)c1	MTT	>100 µM
CSCCCN1C(=O)Cc2ccccc2C1=O	-	>400 µM
O=c1c(Cc2ccc(O)cc2)coc2ccccc12	-	50 µM
O=C1N[C@H](c2ccccc2)C(c2ccccc2)Nc2c1c(=O)n(O)c1ncccc21	-	<100 µM
O=C1c2ccccc2OCC1Cc1ccc(Cl)cc1	-	6.25 µM
COc1ccc(C(O)c2ccccc2C(=O)Nc2ccccc2OC)cc1	MTT	>100 µM
CC(=O)OC(C)(C)CCC(=O)[C@](C)(O)[C@H]1[C@H](O)C[C@@]2(C)[C@@H]3CC=C4[C@@H](C[C@H](O)[C@@H](O)C4(C)C)[C@]3(C)C(=O)C[C@]12C	MTT	8.7 µM
CCSc1n[nH]c(-c2ccc([N+](=O)[O-])c(C)c2)n1	-	6.5 µg/mL
CC(=O)O[C@H]1C[C@]2(C)C(=CCC3[C@@]4(C)CC[C@@H](OC(C)=O)C(C)(C)C4CC[C@]32C)C2[C@H](C(C)C)CC[C@@]21C	-	>10 µM
CCCCSc1n[nH]c(-c2ccco2)n1	-	56.6 µg/mL
COc1ccccc1NC(=O)c1ccccc1C(O)c1cccc([N+](=O)[O-])c1	MTT	>100 µM
C[C@H]1NCc2cc(-c3ccc4c(=O)c(C(=O)O)cn(C5CC5)c4c3OC(F)F)ccc21	-	>200 µg/mL
CCOC(=O)c1ccc(OCCCCC(=O)c2ccc(C)c(Cl)c2)cc1	-	>267 µM
CC(C)CS[C@H]1C[C@@H](n2cnc3c(N)ncnc32)[C@H](O)[C@@H]1O	-	≥400 µg/mL
O=C1NC[C@H](c2ccccc2)Nc2c1c(=O)n(O)c1ncccc21	-	<100 µM
CSCCCN1C(=O)c2ccccc2C(CC(=O)c2ccccc2)C1=O	-	155 µM
COc1cnc(-c2ncon2)c2[nH]cc(C(=O)C(=O)N3CCN(C(=O)c4ccccc4)CC3)c12	trypan blue	>100 µM
CC1(C)[C@@H](CO)CC[C@@]1(C)Cn1nnc2c(Cl)ncnc21	-	>400 µg/mL
COc1c(N2C[C@@H]3CCCN[C@@H]3C2)ccc2c(=O)c(C(=O)O)cn(C3CC3)c12	-	183 µg/mL
COc1cnc(-c2cnccn2)c2[nH]cc(C(=O)C(=O)N3CCN(C(=O)c4ccccn4)CC3)c12	trypan blue	>100 µM
Cc1ccc(C(=O)CCCCOc2ccc(C3=NCCO3)cc2)s1	-	146 µM
C#CCSc1n[nH]c(-c2ccc(Cl)cc2C)n1	-	9.35 µg/mL
O=c1cc(NCc2ccccc2Cl)c2cccnc2n1O	-	<100 µM
CSc1noc(-c2ccc(OCCCOc3ccccc3)cc2)c1C#N	-	20 µM
N#Cc1ccc(OCCCCC(=O)c2ccc(F)cc2)cc1	-	35 µM
[N-]=[N+]=N[C@H]1[C@@H](F)[C@H](N2C=CC(N)NC2=O)O[C@@H]1CO	-	>400 µg/mL
O=c1cc(-c2ccc(NCCN3CCOCC3)nc2)c2cccnc2n1O	-	<100 µM
COc1cnc(-n2cncn2)c2[nH]cc(C(=O)C(=O)N3CCN(C(=O)c4ccccc4)CC3)c12	trypan blue	>100 µM
COc1ccnc2[nH]cc(C(=O)C(=O)N3CCN(C(=O)c4ccccc4)C[C@H]3C)c12	-	226 µM
C=CCSc1n[nH]c(-c2ccc(C(F)(F)F)cc2)n1	-	48.4 µg/mL
Cc1cc(C)n(-c2cccc(-c3cc(=O)n(O)c4ncccc34)c2)n1	-	<100 µM
COc1cnc(-n2ccc(C)n2)c2[nH]cc(C(=O)C(=O)N3CCN(C(=O)c4ccccc4)[C@H](C)C3)c12	trypan blue	>100 µM
CSc1noc(-c2ccc(OCCOc3ccc(Br)cc3)cc2)c1C#N	-	10 µM
CC(C)S(=O)(=O)n1c(N)nc2ccc(/C(=N/O)c3ccccc3)cc21	-	3.6 µg/mL
Cn1ncnc1-c1ncc(F)c2c(C(=O)C(=O)N3CCN(C(=O)c4ccccc4)CC3)c[nH]c12	trypan blue	>100 µM

For reference, 4 entries again:

compound	read by	result
CC(=O)OC(C)(C)CCC(=O)[C@](C)(O)[C@H]1[C@H](O)C[C@@]2(C)[C@@H]3CC=C4[C@@H](C[C@H](O)[C@@H](O)C4(C)C)[C@]3(C)C(=O)C[C@]12C	MTT	8.7 µM
Cc1ccc(C(=O)CCCCOc2ccc(C3=NCCO3)cc2)s1	-	146 µM
C#CCSc1n[nH]c(-c2ccc(Cl)cc2C)n1	-	9.35 µg/mL
CSc1noc(-c2ccc(OCCOc3ccc(Br)cc3)cc2)c1C#N	-	10 µM

An empty or dashed field is not shown. CCn: concentration that lowers growth or viability of the cells by n%. Rows are shuffled and stem from different studies.